We go through eleven molecules from patent publication US9896482B2, “Beta hairpin peptides having antiviral properties against Dengue virus” (CENTRO DE INGENIERÍA GENÉTICA Y BIOTECNOLOGÍA, priority 2014, dated 2018).

Where a SMILES comes first, the peptide text is derived from it. Bridges are numbered along the chain shown (N, C = ends). [ ]: non-standard residue; d: D form. A value given as a limit tells only on which side of the number the result lay.

One data set relates to DENV serotype 2 (NIBSC code S16803). The experiment in a line: Plaque reduction assay in Vero cells, DENV2. Type of data set: cell-based, Dengue virus. Conditions: DENV2, ratio CC50 / IC50. The protocol: The cells were grown in 24 well plates until the monolayer reached approximately 90% confluence, after which they were washed twice with MEM medium without Fetal Bovine Serum (FBS). Then, peptide dilutions were added and the cell-peptide mixtures were incubated typically for 1 hour at 37° C., followed by the addition of a DENV serotype 2 preparation (NIBSC code S16803) at a multiplicity of infection (m.o.i.) of 0.001. The cells were then incubated for 1 hour at 37° C., and once the period of incubation with the viral inoculum concluded, were washed again to remove unbound virions and incubated for 5 days at 37° C. in high density medium (MEM supplemented with non-essential amino acids, 1% FBS, 1% carboxymethylcellulose) in order to let viral plaques form. Afterwards, the cells were stained with 0.1% Naphtol Blue Black in 0.15 M sodium acetate. Two replicates per experimental point were used in each assay, and three independent determinations were performed for each sample.
Next, it was decided to compare the antiviral activity of peptides PHB4 and HDIII3CL against all four DENV serotypes, with the objective of comparing their respective IC50 values. This comparison was performed with plaque reduction assays on Vero cells, adding the viral inoculum for each serotype (DENV1, NIBSC code West Pac 74, DENV2, NIBSC, code S16803; DENV3, NIBSC, code CH53489; DENV 4, NIBSC code TVP360) at a m.o.i. of 0.001.
As to `CC[C@H](C)[C@@H]1NC(=O)CNC(=O)[C@H]([C@@H](C)CC)NC(=O)[C@H](C(C)C)NC(=O)[C@H]([C@@H](C)CC)NC(=O)[C@H](CC(N)=O)NC(=O)[C@H](CO)NC(=O)[C@@H](N)CSSC[C@@H](C(=O)N[C@@H](CCCCN)C(=O)N[C@@H](CCCCN)C(=O)N[C@@H](CCCCN)C(N)=O)NC(=O)[C@H](Cc2c[nH]c3ccccc23)NC(=O)[C@H](CC(N)=O)NC(=O)[C@H]([C@@H](C)CC)NC(=O)[C@H](CCCCN)NC(=O)[C@H](CC(C)C)NC(=O)[C@H](C)NC(=O)[C@H](CCCCN)NC(=O)[C@H](CC(=O)O)NC(=O)CNC1=O` [HDIII3CL2, reference compound] (H-CSNIVIGIGDKALKINWCKKK-NH2; disulfide 1-18), the “SI (selectivity index)” value was determined as 50.

Take `CC[C@H](C)[C@@H]1NC(=O)CNC(=O)[C@H]([C@@H](C)CC)NC(=O)[C@H](C(C)C)NC(=O)[C@H]([C@@H](C)CC)NC(=O)[C@H](CC(N)=O)NC(=O)[C@H](CO)NC(=O)[C@@H](N)CSSC[C@@H](C(=O)N[C@@H](CCCCN)C(=O)N[C@@H](CCCCN)C(N)=O)NC(=O)[C@H](Cc2c[nH]c3ccccc23)NC(=O)[C@H](CC(N)=O)NC(=O)[C@H]([C@@H](C)CC)NC(=O)[C@H](CCCCN)NC(=O)[C@H](CC(C)C)NC(=O)[C@H](C)NC(=O)[C@H](CCCCN)NC(=O)[C@H](CC(=O)O)NC(=O)CNC1=O` [HDIII3CL, reference compound] (H-CSNIVIGIGDKALKINWCKK-NH2; disulfide 1-18): the “SI (selectivity index)” value is on record as 50.

Consider `CC(C)[C@@H]1NC(=O)[C@H](CCCCN)NC(=O)[C@H](CCCCN)NC(=O)[C@H](CC(=O)O)NC(=O)[C@H]2CCCN2C(=O)[C@H](CCC(=O)O)NC(=O)[C@H]([C@@H](C)O)NC(=O)[C@H](Cc2c[nH]c3ccccc23)NC(=O)[C@H](CC(N)=O)NC(=O)[C@H](C(C)C)NC(=O)[C@@H](N)CSSC[C@@H](C(=O)N[C@@H](CCCCN)C(=O)N[C@@H](CCCCN)C(=O)N[C@@H](CCCCN)C(N)=O)NC(=O)[C@H](Cc2c[nH]c3ccccc23)NC(=O)[C@H](CC(N)=O)NC1=O` [PHB1] (H-CVNWTE[dP]DKKVNWCKKK-NH2; disulfide 1-14), for which the “SI (selectivity index)” value is reported as >>13.

Turning to `CC(C)[C@@H]1NC(=O)[C@H](CCCCN)NC(=O)[C@H](Cc2c[nH]c3ccccc23)NC(=O)[C@H](CCCCN)NC(=O)[C@H]2CCCN2C(=O)[C@H](CCCNC(=N)N)NC(=O)[C@H]([C@@H](C)O)NC(=O)[C@H](Cc2c[nH]c3ccccc23)NC(=O)[C@H](Cc2ccc(O)cc2)NC(=O)[C@H](C(C)C)NC(=O)[C@@H](N)CSSC[C@@H](C(=O)N[C@@H](CCCCN)C(=O)N[C@@H](CCCCN)C(=O)N[C@@H](CCCCN)C(N)=O)NC(=O)[C@H](Cc2c[nH]c3ccccc23)NC(=O)[C@H](CC(N)=O)NC1=O` [PHB2] (H-CVYWTR[dP]KWKVNWCKKK-NH2; disulfide 1-14), the “SI (selectivity index)” value is 7.

`CC[C@H](C)[C@@H]1NC(=O)[C@H](Cc2ccccc2)NC(=O)[C@H](Cc2c[nH]c3ccccc23)NC(=O)[C@H](CC(N)=O)NC(=O)[C@H](C(C)C)NC(=O)[C@H](CCCCN)NC(=O)[C@H](CCCCN)NC(=O)[C@H](CC(=O)O)NC(=O)[C@H]2CCCN2C(=O)[C@H](CCC(=O)O)NC(=O)[C@H]([C@@H](C)O)NC(=O)[C@H](Cc2c[nH]c3ccccc23)NC(=O)[C@H](CC(N)=O)NC(=O)[C@H](C(C)C)NC(=O)[C@H](CCC(=O)O)NC(=O)[C@H]([C@@H](C)CC)NC(=O)[C@@H](N)CSSC[C@@H](C(=O)N[C@@H](CCCCN)C(=O)N[C@@H](CCCCN)C(=O)N[C@@H](CCCCN)C(N)=O)NC1=O` [PHB3] (H-CIEVNWTE[dP]DKKVNWFICKKK-NH2; disulfide 1-18): the “SI (selectivity index)” value was >>59.

`CC[C@H](C)[C@@H]1NC(=O)[C@H](Cc2ccccc2)NC(=O)[C@H](Cc2c[nH]c3ccccc23)NC(=O)[C@H](CC(N)=O)NC(=O)[C@H](C(C)C)NC(=O)[C@H](CCCCN)NC(=O)[C@H](Cc2c[nH]c3ccccc23)NC(=O)[C@H](CCCCN)NC(=O)[C@H]2CCCN2C(=O)[C@H](CCCNC(=N)N)NC(=O)[C@H]([C@@H](C)O)NC(=O)[C@H](Cc2c[nH]c3ccccc23)NC(=O)[C@H](Cc2ccc(O)cc2)NC(=O)[C@H](C(C)C)NC(=O)[C@H](CCC(=O)O)NC(=O)[C@H]([C@@H](C)CC)NC(=O)[C@@H](N)CSSC[C@@H](C(=O)N[C@@H](CCCCN)C(=O)N[C@@H](CCCCN)C(=O)N[C@@H](CCCCN)C(N)=O)NC1=O` [PHB4] (H-CIEVYWTR[dP]KWKVNWFICKKK-NH2; disulfide 1-18; N-terminus assumed): the “SI (selectivity index)” value was found to be 4333.

Take `CC(C)[C@H](NC(=O)[C@H](CC(N)=O)NC(=O)[C@H](Cc1c[nH]c2ccccc12)NC(=O)[C@@H](NC(=O)[C@H](Cc1c[nH]c2ccccc12)NC(=O)[C@H](CCCCN)NC(=O)[C@H](CC(N)=O)NC(=O)[C@@H](CCCCN)NC(=O)[C@H](CCC(=O)O)NC(=O)[C@H](Cc1c[nH]c2ccccc12)NC(=O)[C@H](CCCCN)NC(=O)[C@H](Cc1c[nH]c2ccccc12)NC(=O)[C@H](CC(N)=O)NC(=O)[C@H](Cc1c[nH]c2ccccc12)NC(=O)[C@@H](N)Cc1ccccc1)[C@@H](C)O)C(=O)N[C@@H](CCC(=O)O)C(=O)NCC(=O)NCC(=O)N[C@@H](CCCCN)C(=O)N[C@@H](CCCCN)C(=O)N[C@@H](CCCCN)C(N)=O` [PHB5] (H-FWNWKWE[dK]NKWTWNVEGGKKK-NH2): the “SI (selectivity index)” value was determined as 15.

For `CC(C)[C@H](NC(=O)[C@H](CC(N)=O)NC(=O)[C@H](Cc1c[nH]c2ccccc12)NC(=O)[C@@H](NC(=O)[C@H](Cc1c[nH]c2ccccc12)NC(=O)[C@H](CCCCN)NC(=O)[C@H](CC(N)=O)NC(=O)[C@H]1CCCN1C(=O)[C@H](CCC(=O)O)NC(=O)[C@H](Cc1c[nH]c2ccccc12)NC(=O)[C@H](CCCCN)NC(=O)[C@H](Cc1c[nH]c2ccccc12)NC(=O)[C@H](CC(N)=O)NC(=O)[C@H](Cc1c[nH]c2ccccc12)NC(=O)[C@@H](N)Cc1ccccc1)[C@@H](C)O)C(=O)N[C@@H](CCC(=O)O)C(=O)NCC(=O)NCC(=O)N[C@@H](CCCCN)C(=O)N[C@@H](CCCCN)C(=O)N[C@@H](CCCCN)C(N)=O` [PHB6] (H-FWNWKWE[dP]NKWTWNVEGGKKK-NH2), the “SI (selectivity index)” value was 12.

Consider `CC[C@H](C)[C@@H]1NC(=O)[C@H]([C@@H](C)O)NC(=O)[C@H](C(C)C)NC(=O)[C@H](CC(N)=O)NC(=O)[C@H](C(C)C)NC(=O)[C@@H](N)CSSC[C@@H](C(=O)N[C@@H](CCCCN)C(=O)N[C@@H](CCCCN)C(=O)N[C@@H](CCCCN)C(N)=O)NC(=O)[C@H](Cc2c[nH]c3ccccc23)NC(=O)[C@H](CC(N)=O)NC(=O)[C@H](Cc2ccc(O)cc2)NC(=O)[C@H](CCCCN)NC(=O)[C@H](CCCCN)NC(=O)CNC(=O)[C@H](CC(N)=O)NC1=O` [PHB7] (H-CVNVTINGKKYNWCKKK-NH2; disulfide 1-14), for which the “SI (selectivity index)” value is reported as 24.

In the case of `CC[C@H](C)[C@@H]1NC(=O)[C@H](Cc2ccccc2)NC(=O)[C@H](Cc2c[nH]c3ccccc23)NC(=O)[C@H](CC(N)=O)NC(=O)[C@H](Cc2ccc(O)cc2)NC(=O)[C@H](CCCCN)NC(=O)[C@H](CCCCN)NC(=O)CNC(=O)[C@H](CC(N)=O)NC(=O)[C@H]([C@@H](C)CC)NC(=O)[C@H]([C@@H](C)O)NC(=O)[C@H](C(C)C)NC(=O)[C@H](CC(N)=O)NC(=O)[C@H](C(C)C)NC(=O)[C@H](CCC(=O)O)NC(=O)[C@H]([C@@H](C)CC)NC(=O)[C@@H](N)CSSC[C@@H](C(=O)N[C@@H](CCCCN)C(=O)N[C@@H](CCCCN)C(=O)N[C@@H](CCCCN)C(N)=O)NC1=O` [PHB8] (H-CIEVNVTINGKKYNWFICKKK-NH2; disulfide 1-18), the “SI (selectivity index)” value was found to be 20.

For `CC[C@H](C)[C@@H]1NC(=O)[C@H](Cc2ccccc2)NC(=O)[C@H](Cc2c[nH]c3ccccc23)NC(=O)[C@H](CC(N)=O)NC(=O)[C@H](Cc2ccc(O)cc2)NC(=O)[C@H](CCCCN)NC(=O)[C@H](CCCCN)NC(=O)CNC(=O)[C@H](CC(N)=O)NC(=O)[C@H]([C@@H](C)CC)NC(=O)[C@H]([C@@H](C)O)NC(=O)[C@H](C(C)C)NC(=O)[C@H](Cc2ccc(O)cc2)NC(=O)[C@H](C(C)C)NC(=O)[C@H](CCC(=O)O)NC(=O)[C@H]([C@@H](C)CC)NC(=O)[C@@H](N)CSSC[C@@H](C(=O)N[C@@H](CCCCN)C(=O)N[C@@H](CCCCN)C(=O)N[C@@H](CCCCN)C(N)=O)NC1=O` [PHB9] (H-CIEVYVTINGKKYNWFICKKK-NH2; disulfide 1-18), the “SI (selectivity index)” value came out at 31.

The same data set, now with this note: all four DENV serotypes.
For the molecule `CC[C@H](C)[C@@H]1NC(=O)[C@H](Cc2ccccc2)NC(=O)[C@H](Cc2c[nH]c3ccccc23)NC(=O)[C@H](CC(N)=O)NC(=O)[C@H](C(C)C)NC(=O)[C@H](CCCCN)NC(=O)[C@H](Cc2c[nH]c3ccccc23)NC(=O)[C@H](CCCCN)NC(=O)[C@H]2CCCN2C(=O)[C@H](CCCNC(=N)N)NC(=O)[C@H]([C@@H](C)O)NC(=O)[C@H](Cc2c[nH]c3ccccc23)NC(=O)[C@H](Cc2ccc(O)cc2)NC(=O)[C@H](C(C)C)NC(=O)[C@H](CCC(=O)O)NC(=O)[C@H]([C@@H](C)CC)NC(=O)[C@@H](N)CSSC[C@@H](C(=O)N[C@@H](CCCCN)C(=O)N[C@@H](CCCCN)C(=O)N[C@@H](CCCCN)C(N)=O)NC1=O` [PHB4] (H-CIEVYWTR[dP]KWKVNWFICKKK-NH2; disulfide 1-18; N-terminus assumed), the “Selectivity indexes depending on the specific serotype” value lay in the range of 1290 to 6450.
